A mixed list of measured activities; the numbers were collected in NIAID ChemDB.

Common to all: toxicity to cultured cells; cell line: 1A2; measure: CC50

Conditions beyond the fields shown may differ between rows. CCn: concentration that lowers growth or viability of the cells by n%.

smiles | method | value
CC1OC(OC2C(Oc3cc(O)c4c(=O)c(O)c(-c5ccc(O)cc5)oc4c3)OC(CO)C(O)C2O)C(O)C(O)C1O | XTT | >216 µM
CCCc1cc(=O)oc2c3c(c4c(c12)OC(C)(C)C=C4)OC(C)C(C)C3O | XTT | 35 µM
COc1cc(O)c2c(=O)cc(-c3c(OC)c(OC)c(OC)c(OC)c3OC)oc2c1 | XTT | >125 µg/mL
COc1cc(OC)c2c(=O)c3c(O)c4c(c(OC)c3oc2c1O)OC(C)(C)C=C4 | XTT / absorbance | >337 µM
CC1OC(OC2C(Oc3cc(O)c4c(=O)c(O)c(-c5ccc(O)c(O)c5)oc4c3)OC(CO)C(O)C2O)C(O)C(O)C1O | XTT | >210 µM
COc1cc(-c2cc(O)c(OC)c(OC)c2)ccc1O | XTT / absorbance | 107 µM
CC(C)=CC(=O)C[C@@H](C)[C@H]1CC[C@@]2(C)[C@@H]3CC[C@H]4[C@](C)(C(=O)O)[C@@H](O)CC[C@@]45C[C@@]35CC[C@]12C | XTT | 125 µg/mL
O=C(O)/C=C/c1ccc(O)c(O)c1 | XTT | 36.77 µM
C/C(=C\C=C\C(C)[C@H]1CC[C@@]2(C)[C@@H]3CC[C@H]4C(C)(C)C(=O)CC[C@]4(C)C3=CC[C@]12C)C(=O)O | XTT / absorbance | 276 µM
COc1cc(-c2cc(OC)c3c(c2)OCO3)ccc1O | XTT / absorbance | 67.82 µM
C/C(=C\C=C\[C@@H](C)C1CC[C@@]2(C)[C@@H]3CC[C@H]4C(C)(C)C(=O)CC[C@]4(C)[C@@]3(O)CC[C@]12C)C(=O)O | XTT / absorbance | 42.73 µM
COc1cc(-c2ccccc2)c(OC)c(OC)c1O | XTT / absorbance | 292 µM
O=c1c2cccc(O)c2oc2cccc(O)c12 | XTT / absorbance | 433 µM
Cc1cn([C@H]2C[C@H](N=[N+]=[N-])[C@@H](CO)O2)c(=O)[nH]c1=O | XTT | >10 µM
O=C1c2c(O)cc(O)cc2O[C@H](c2ccc(O)cc2)[C@H]1c1c(O)cc(O)c2c(=O)cc(-c3ccc(O)c(O)c3)oc12 | XTT / absorbance | 179 µM
C=C1[C@H]2CCC3C(CCC4[C@@]3(C)CCC[C@@]4(C)C(=O)O)(C2)[C@@H]1O | XTT | 104.8 µg/mL
CC(C)=CC[C@H]1C[C@@]2(C[C@H]3CCC(C)(C)C=C3C)C(=O)[C@](C(=O)c3ccccc3)(C(=O)C3=C2OC(C)(C)C=C3)C1(C)C | XTT / absorbance | >220 µM
COc1cc(O)c2c(=O)cc(-c3cc(OC)c(OC)c(OC)c3OC)oc2c1 | XTT | >125 µg/mL
C=C1[C@H]2CCC3C(CCC4[C@@]3(C)CCC[C@@]4(C)C(=O)O)(C2)[C@@H]1OC(C)=O | XTT | 189.1 µg/mL
O=C(/C=C/c1ccc(O)c(O)c1)O[C@H]1[C@@H]2C=CO[C@@H](OC3OC(CO)C(O)C(O)C3O)[C@@H]2[C@@]2(CO)O[C@@H]12 | XTT | 154 µM
NS(=O)(=O)c1ccc(NC(=O)c2ccccc2SSc2ccccc2C(=O)Nc2ccc(S(N)(=O)=O)cc2)cc1 | XTT | >40 µM
COC(=O)/C(C)=C/C=C/[C@@H](C)[C@H]1CC[C@@]2(C)C3CC[C@H]4C(C)(C)C(=O)CC[C@]4(C)[C@@]3(O)CC[C@]12C | XTT / absorbance | 159 µM
CC1(C)C=Cc2c(c(O)cc3oc4cc(O)cc(O)c4c(=O)c23)O1 | XTT / absorbance | 127 µM
COC(=O)/C(C)=C/C=C/[C@@H](C)C1CC[C@@]2(C)[C@@H]3CC[C@H]4C(C)(C)C(=O)CC[C@]4(C)C3=CC[C@]12C | XTT / absorbance | <7.79 µM
C=C[C@@](C)(O)CC/C(C)=C/C(=O)O[C@H]1[C@@H]2C=CO[C@@H](OC3OC(CO)C(O)C(O)C3O)[C@@H]2[C@@]2(CO)O[C@@H]12 | XTT | >237 µM
C[C@@]12CCC[C@@](C)(C(=O)O)C1CC[C@@]13C[C@H](CCC12)[C@](C)(O)C3 | XTT | >125 µg/mL
O=c1c2cccc(O)c2oc2cc(O)cc(O)c12 | XTT / absorbance | 223.5 µM
C[C@@]12CCC[C@@](C)(C(=O)O)C1CCC13C=C(CC[C@H]4C(=O)[C@@]56CCC7[C@@](C)(CCC[C@@]7(C)C(=O)O)C5CC[C@H]4C6)[C@H](CCC12)C3 | XTT | >125 µg/mL
C=C(CC[C@@H](C)[C@H]1CC[C@@]2(C)[C@@H]3CC[C@H]4[C@](C)(C(=O)O)[C@@H](O)CC[C@@]45C[C@@]35CC[C@]12C)C(C)C | XTT | 120.1 µg/mL
CC1(C)CC[C@]2(C(=O)O)CC[C@]3(C)C(=CCC4[C@@]5(C)CC[C@H](O)C(C)(C)[C@@H]5CC[C@]43C)C2[C@@H]1O | XTT | 254 µM
C=C1CC23CCC4[C@@](C)(CCC[C@@]4(C)C(=O)O)C2CC[C@H]1C3 | XTT | 42.7 µg/mL

Repeating the final 4 entries:

smiles,method,value
C[C@@]12CCC[C@@](C)(C(=O)O)C1CCC13C=C(CC[C@H]4C(=O)[C@@]56CCC7[C@@](C)(CCC[C@@]7(C)C(=O)O)C5CC[C@H]4C6)[C@H](CCC12)C3,XTT,>125 µg/mL
C=C(CC[C@@H](C)[C@H]1CC[C@@]2(C)[C@@H]3CC[C@H]4[C@](C)(C(=O)O)[C@@H](O)CC[C@@]45C[C@@]35CC[C@]12C)C(C)C,XTT,120.1 µg/mL
CC1(C)CC[C@]2(C(=O)O)CC[C@]3(C)C(=CCC4[C@@]5(C)CC[C@H](O)C(C)(C)[C@@H]5CC[C@]43C)C2[C@@H]1O,XTT,254 µM
C=C1CC23CCC4[C@@](C)(CCC[C@@]4(C)C(=O)O)C2CC[C@H]1C3,XTT,42.7 µg/mL